Test results from publication PMC8220418, “A fragment-based approach to assess the ligandability of ArgB, ArgC, ArgD and ArgF in the L-arginine biosynthetic pathway of Mycobacterium tuberculosis” (Computational and Structural Biotechnology Journal, 2021).

Molecular target: ArgB (Mycobacterium tuberculosis, UniProt P9WQ01)
Assay: Isothermal titration calorimetry with ArgB
Type: binding
Settings: read-out: ITC Kd; 25 °C, single-site model

CC(=O)N[C@@H](CCC(=O)O)C(=O)O [NAG, N-acetyl-L-glutamic acid]
Kd: 56 µM
